Usually Kd stands for the equilibrium constant for the complex coming apart. Higher therefore signals lower affinity. By stoichiometry N is commonly meant the number of molecules, sites or subunits per partner or assembly.

Results on two molecules are retold here after PMC12443476 (eLife, 2025).

Series [1] has as its target T1, biotinylated Tom70 ([…]) with N-terminal AVI tag (human, biotin (AVI tag, by co-expressed BirA)).
T1 construct: also called biotin-Tom70; immobilized Tom70
As to the kind of experiment: SPR. As to conditions: both partners purified.

Series [2] concerns the molecule itself. As to the kind of experiment: SEC.
Series [3] addresses T2, hTom70 ([…]) lacking the transmembrane domain (human).
T2 construct: also called Translocase of Outer Membrane 70
The series can be described thus: fluorescence polarisation. As to conditions: both partners purified. A general note: Fluorescence polarisation rises when a labelled molecule tumbles more slowly, as on binding a larger partner.

B1: WT refolded Orf9b (apo-Orf9b homodimer) (natural protein)
chain: not shown
notes: also called apo-homodimer; lipid-free Orf9b
As for B1, in series [1], the Kd came to 0.19 ± 0.001 µM, the “fold slower association rate than the Orf9b peptide” value was approximately 3 fold and the “fold slower dissociation rate than the Orf9b peptide” value was approximately 10 fold.

B2: Orf9b Delta variant (T60A), refolded (natural protein)
chain: not shown
notes: also called Orf9b T60A
B2: the “stoichiometry N” value in series [2] came to 2. Besides, the binding result in series [3] is on record as “binds”.
